The values below come from paper PMC6152089, “Steroid Alkaloids from Holarrhena africana with Strong Activity against Trypanosoma brucei rhodesiense” (Molecules : A Journal of Synthetic Chemistry and Natural …, 2017).

Values joined by “and” are separate entries in the source; they are usually repeats but may differ in a detail not shown here. Equal entries are not always repeated.

This data set deals with Trypanosoma brucei rhodesiense (bloodstream trypomastigotes, STIB 900 strain). The data set is described as follows: In vitro anti-trypanosomal activity against Tbr. It counts as cell-based. To be noted: isolated compounds; SI = cytotoxic IC50 (L6)/IC50 Tbr. On the procedure: In vitro tests for biological activity of the crude extracts, fractions, sub-fractions and isolated compounds against Trypanosoma brucei rhodesiense (bloodstream trypomastigotes, STIB 900 strain), Trypanosoma cruzi (amastigotes, Tulahuen C4 strain), Leishmania donovani (amastigotes, MHOM-ET-67/L82 strain), Plasmodium falciparum (intraerythrocytic form, NF54 strain) and cytotoxicity test against mammalian L6 cell line from rat skeletal myoblasts were performed according to the established standard protocol. However, only the activity data against Trypanosoma brucei rhodesiense is reported due to the inactivity of the tested substances against other parasites at the concentration tested.
For `C[C@H]1[C@H]2CC[C@H]3[C@@H]4C=CC5=CC(=O)CC[C@]5(C)[C@H]4CC[C@]23CN1C` [Compound 9, cona-4,6-dienin-3-one], the SI amounted to 7.4. `C[C@@H]1N=C[C@]23C[C@H](O)[C@H]4[C@@H](CCC5=CC(=O)C=C[C@@]54C)[C@@H]2CC[C@H]13` [Compound 8, holonamine] had an SI of 7.5.

On to `C[C@H]1[C@H]2CC[C@H]3[C@@H]4CC=C5C[C@@H](N(C)C)CC[C@]5(C)[C@H]4C[C@@H](O)[C@]23CN1C` [Compound 17, holarrhenine], for which the SI amounted to 6.0.

Take N^3-isopentenyl adenine [Compound 19]: the SI is 12.2. In the case of `CN[C@H]1CC[C@@]2(C)C(=CC[C@H]3[C@@H]4CC[C@@H]5[C@H](C)N(C)C[C@@]54[C@H](O)C[C@@H]32)C1` [Compound 16, holarrheline], the SI is 22.0. On to `CC(=O)N[C@H]1CC[C@@]2(C)C(=CC[C@H]3[C@@H]4CC[C@H](C(C)=O)[C@@]4(C)CC[C@@H]32)C1` [Compound 2, holaphyllamine acetamide], for which the SI stood at 3.2.

As for `C[C@@H]1NC[C@]23CC[C@H]4[C@@H](CC=C5C[C@@H](N(C)C)CC[C@@]54C)[C@@H]2CC[C@H]13` [Compound 11, conessimine], the SI was > 300 and 302. Then `C[C@H]1[C@H]2CC[C@H]3[C@@H]4C(=O)C=C5C=CCC[C@]5(C)[C@H]4CC[C@]23CN1C` [Compound 10, cona-3,5-dienin-7-one], with 5.7; and `C[C@H]1[C@H]2CC[C@H]3[C@@H]4CC=C5C[C@@H](N(C)C)CC[C@]5(C)[C@H]4CC[C@]23CN1C` [Compound 13, conessine], with 146.

For `CC(C)=CCC(=O)O[C@@H]1C[C@H]2[C@@H](CC=C3C[C@@H](N(C)C)CC[C@@]32C)[C@@H]2CC[C@@H]3[C@H](C)N(C)C[C@]312` [Compound 15, holarrhetine], the SI was 58.9. Then `CC(=O)[C@H]1CC[C@H]2[C@@H]3CC=C4C[C@@H](N)CC[C@]4(C)[C@H]3CC[C@]12C` [Compound 1, 3β-holaphyllamine], with 12.6. In the case of `CN[C@H]1CC[C@@]2(C)C(=CC[C@H]3[C@@H]4CC[C@H](C(C)=O)[C@@]4(C)CC[C@@H]32)C1` [Compound 3, 3β-N-methylholaphyllamine], the SI was 33 and 33.2. On to `CN[C@H]1CC[C@@]2(C)C(=CC[C@H]3[C@@H]4CC[C@@H]5[C@H](C)N(C)C[C@@]54[C@H](OC(=O)CC=C(C)C)C[C@@H]32)C1` [Compound 14, holarrhesine], for which the SI was found to be 121. Then `CC(=O)[C@H]1CC[C@H]2[C@@H]3CC=C4C[C@H](N)CC[C@]4(C)[C@H]3CC[C@]12C` [Compound 4, 3α-holaphyllamine], with 42.9.

Compound `CN[C@H]1CC[C@@]2(C)C(=CC[C@H]3[C@@H]4CC[C@@H]5[C@H](C)N(C)C[C@@]54CC[C@@H]32)C1` [Compound 12, isoconessimine] had an SI of 168.
